Experiment [1] has as its target T1, SARS-CoV-2 C.37 Spike His Protein (R&D, Cat. #10887-CV) (SARS-CoV-2). Put plainly: direct ELISA on coated spike.
Experiment [2] deals with T2, SARS-CoV-2 AY.1 Spike Protein (R&D, Cat. #10922-CV) (SARS-CoV-2). Put plainly: direct ELISA on coated spike. For orientation: An ELISA detects its analyte on a solid surface through an enzyme-linked reagent.
The target of experiment [3] is T1, SARS-CoV-2 C.37 Spike His Protein (R&D, …). Put plainly: BLI (ForteBio), mAb on AHC sensor, spike in solution.
In experiment [4] the target is T2, SARS-CoV-2 AY.1 Spike Protein (R&D, …). The experiment is described as above.
Experiment [5] concerns the target T3, SARS-CoV-2 Spike Protein, wild type (R&D, Cat. #10549-CV) (SARS-CoV-2). Described as above.
Experiment [6] concerns the target T3, SARS-CoV-2 Spike Protein, wild type …. Put plainly: competition ELISA: blocks biotin-ACE2 binding to coated spike.
Experiment [7] concerns the target T1, SARS-CoV-2 C.37 Spike His Protein (R&D, …). Described as above.
The target of experiment [8] is T2, SARS-CoV-2 AY.1 Spike Protein (R&D, …). The experiment is described as above.

B1: anti-SARS-CoV-2 antibody clone R4-1a-51 (antibody, V domains shown)
VH: QVQLVQSGAEVKKPGASVKVSCKASGYTFTGYYMHWVRQAPGQGLEWMGRINPNSGGTNYAQKFQGRVAMTRDTSISTAYMELSRLRSDDTAVYYCARGYMDYWGQGTPVTVSS
VL: QSVLTQPPSASGTPGQRVTISCSGSSSNIGSSTVNWYQQLPETAPKLLIYSNHQRPSGVPDRFSGSKSGTSASLALSGLQSEDEAEYYCAAWDDSLNGVVFGGGTKLTVLG
Usually EC50 stands for the concentration needed to bring the measured effect to its halfway point. High values mean a need for much substance, low ones an effect from little substance. What is called Kd is the constant that tells how readily two partners part at equilibrium. A high value points to lower affinity. Usually IC50 stands for the concentration that inhibits the measured activity by half. As for B1, the half-maximal effective concentration (EC50) in experiment [1] came to 0.0771 nM; in experiment [2] it was 0.0881 nM. Also, the dissociation constant (Kd) in experiment [3] worked out at 1.21 nM; in experiment [4] it was 1.26 nM; in experiment [5], 2.72 nM. Besides, the IC50 in experiment [6] worked out at 6 nM; in experiment [7], 2.78 nM; in experiment [8] it was 0.723 nM.

The values above are taken from patent publication US20260250363A1 (AP BIOSCIENCES, published 2026).
